Source: ChEMBL document CHEMBL3988442, “University of Dundee, Small-Polar-MMV Screening Library” (2021).

Mtb glucose medium: 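Whole-cell growth test on Mycobacterium tuberculosis, read after 3 days in glucose-containing 7H9 medium; the read-out is not stated. Compounds at 500 µM. Higher reads as more growth inhibition (inferred: compounds with an IC50 in retests scored well above the rest). About 18,000 compounds were tested under these conditions; 7.9% (about 1,400) showed 50% or more at least once.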
Mtb cholesterol medium: 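Phenotypic screen: M. tuberculosis growth, cholesterol and DPPC medium, 4 days; the read-out is not stated. Tested at 500 µM. Higher reads as more growth inhibition (inferred: compounds with an IC50 in retests scored well above the rest). Size under these conditions: about 18,000 compounds, about 900 of them at 50% or above in at least one test.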

Results are given as percent effect.
The controls that fix the scale are not given in the record; negative values are as filed.
This is part of a subset picked to be rich in strong results.
A dash means the value is not listed here; it may have been measured.

| compound | Mtb glucose medium | Mtb cholesterol medium |
|---|---|---|
| `COCC(C)Nc1cccc(F)c1C#N` (stereo not drawn) | - | 56.83 |
| `COCC1CCN(C(=O)Nc2ccc(F)c(OC)c2)C1` (stereo not drawn) | - | 16.56 |
| `COC1(c2noc(-c3cnccn3)n2)CCC1` | 18.83 | - |
| `CNS(=O)(=O)c1ccc(C(=O)NC(C)C#N)cc1` (stereo not drawn) | 11.57 | - |
| `Cc1ccc(F)c(S(=O)(=O)N2C[C@H](C3CC3)[C@@H](N)C2)c1` | 52.93 | - |
| `CN(C)c1ncccc1CNS(=O)(=O)c1ccccc1` | 53.21 | - |
| `CNCc1nncn1C` | -3.679 | - |
| `CCn1c(=O)c2ccccc2n(CC)c1=O` | - | -4.725 |
| `CC(C)C(=O)NCCNC(=O)C(C)(C)C` | 3.386 | - |
| `Cc1c(NC(N)=O)c(=O)n(-c2ccccc2)n1C` | -10.74 | - |
| `COCCNC(=O)CN(C)CC(=O)N1CCOCC1` | -9.607 | - |
| `OCCNCCNCc1ccc(-c2ccccc2Cl)o1` | 92.56 | 93.99 |
| `NC1CCN(c2ncccc2Cl)C1` (stereo not drawn) | 86.08 | 77.63 |
| `O=c1n(Cc2ccccc2)nnn1-c1cccs1` | 78.62 | 76.26 |
| `N#Cc1cccc(C(=O)NCC(O)C2CCOCC2)c1` (stereo not drawn) | -0.8343 | - |
| `CN(C)c1ncc(CN2CCC(O)(CO)C2)cn1` (stereo not drawn) | 5.748 | - |
| `CNCC(=O)NCc1cnc(-c2cccc(OC)c2)s1` | 49.45 | 31.42 |
| `O=C1NC(=O)c2cc(F)c(F)cc21` | 1.061 | -1.802 |
| `COc1cc(C)c(NC(=O)C(C)C)cc1OC` | -2.439 | - |
| `CC(C)Cn1[nH]ccc1=NC(=O)Cn1cnc(C#N)n1` | -1.645 | - |
| `COc1cccc(S(=O)(=O)CCN2CCC(O)CC2)c1` | 64.67 | 33.11 |
| `CC(C)C(NC(=O)c1ccco1)C(=O)Nc1nccs1` (stereo not drawn) | 35.48 | - |
| `NCC1CCc2ccccc21` (stereo not drawn) | 40.67 | 14.27 |
| `O=C(CCOc1cccc(F)c1)NCC1CCCO1` (stereo not drawn) | 38.93 | 28.97 |
| `O=C(NC1CC1)c1ccc(CNC2CC2)cc1` | -0.9977 | 14.58 |
| `N#Cc1c(N)nc2c(c1-c1ccccc1)C(=O)CCC2` | - | -12.45 |
| `COc1ncccc1-c1cccc(C#N)n1` | 2.169 | -12.06 |
| `C=C(C)COc1ccccc1CNCCNC(C)=O` | 21.5 | - |
| `NCC1(O)CCS(=O)(=O)C1` (stereo not drawn) | - | 5.996 |
| `COc1cccnc1CN` | 22.79 | - |
| `Cn1ncnc1SCC(=O)N1CCCCC1` | -0.05566 | - |
| `CS(=O)(=O)c1cccc(C(=O)NCC2(O)CCNC2)c1` (stereo not drawn) | 13.45 | - |
| `CNCc1nc(C(F)(F)F)no1` | 54.64 | - |
| `Cc1ccccc1-c1nnn(CC(O)CC(F)(F)F)n1` (stereo not drawn) | 78.77 | 6.962 |
| `Cc1cc(S(N)(=O)=O)ccc1CN` | 6.896 | - |
| `N#CC1COCCN1C(=O)c1ccc(Cl)cn1` (stereo not drawn) | -0.172 | - |
| `CCn1ncnc1CN1CC(Oc2ccccc2)C1` | 68.6 | - |
| `CSC1(CNC(=O)NCc2ccco2)CCOCC1` | - | 24.13 |
| `Cc1cccc(CN2CCC3(CC2)[C@H](O)C[C@@H]3O)c1` | 8.65 | - |
| `Nc1ccc(N2CCNCC2)cn1` | - | -7.047 |
| `O=c1[nH]c(CN2CCOCC2)nc2ccsc12` | -8.485 | - |
| `Cc1cc(=O)[nH]c(C(C)(C)N)n1` | 2.392 | - |
| `CSCC(=O)NCCc1noc(C(F)(F)F)n1` | - | 6.314 |
| `CN1CCCCC1C(=O)N1CCC(c2ncc[nH]2)CC1` (stereo not drawn) | - | 13.2 |
| `CCN(CC(=O)NC)S(=O)(=O)N1CCOCC1` | -2.095 | - |
| `COc1ccc(S(=O)(=O)N2CCC(=O)C(C)C2)cc1C` (stereo not drawn) | 25.3 | - |
| `COc1cc(C(=O)Nc2nnc[nH]2)cc(Cl)c1OC` | -0.4678 | -3.916 |
| `CC(C)Oc1ccc(CNC(=O)C2CCC(=O)N2)cc1` (stereo not drawn) | - | 6.668 |
| `N#Cc1cc(F)ccc1CN1CC[C@@H](O)C1` | - | -10.75 |
| `CCOCCCNC(=O)c1ccc(C#N)cc1` | 32.21 | - |
| `COc1ccc(CNCCn2cccn2)cc1OC` | 13.51 | - |
| `COC(C)C(=O)N(C)c1ncc(Cl)cc1Cl` (stereo not drawn) | 9.429 | 8.976 |
| `NCCNC(=O)c1ccccc1C(F)(F)F` | - | -6.554 |
| `O=C(COc1cccc(F)c1)N1CCN(CCO)CC1` | 0.1095 | - |
| `COCc1[nH][nH]c(=O)c1CCN` | -0.8988 | - |
| `O=C(CC1(O)CCCCC1)NCCNC(=O)C1CC1` | -3.829 | - |
| `OCC(O)CSCc1ncc(-c2cccc(Cl)c2)o1` (stereo not drawn) | 60.88 | 49.1 |
| `Cn1cnnc1CCNC(=O)Cc1ccsc1` | 1.056 | - |
| `CCCN(CC(=O)NC)C(=O)c1ccc(C)[nH]c1=O` | - | 4.377 |
| `CCOc1cccc(CSc2nc(=O)ccn2CC)n1` | 50.62 | 26.69 |
| `Cc1ccoc1C(=O)NCc1ccnc(N(C)C)c1` | - | 15.96 |
| `Cn1cccc1C(=O)OCCCN1CCOCC1` | - | 13.7 |
| `Cn1ncc2ccc(CN)cc21` | 13.74 | - |
| `O=C(NC1CNC1)C1CC1` | 3.638 | - |
| `CN(C)C(=O)CN(C)c1ncc(C(F)(F)F)cc1Cl` | 31.5 | 14.72 |
| `Cc1n[nH]cc1CNCCS(=O)(=O)Cc1ccccc1` | - | 8.805 |
| `COC(=O)c1ccc(N2CCCC2)nn1` | -2.988 | -0.7174 |
| `O=C(N[C@H]1C[C@@H]2OCC[C@H]12)c1ccc2[nH]nnc2c1` | 4.223 | - |
| `O=C1CN(C(=O)C2=Cc3cc(Cl)ccc3OC2)CCN1` | - | -3.883 |
| `COc1ccnc(CN)c1F` | 13.43 | - |
| `CC(C)(C)OC(=O)N[C@@H]1CCCNC1=O` | - | -13.56 |
| `OC1CCCN(Cc2cc(-c3ccco3)on2)C1` (stereo not drawn) | - | -11.21 |
| `CCO[C@H]1CN(c2nc(-c3ccccc3)no2)C[C@@H]1O` | 56.96 | - |

Some entries from above, unchanged:

O=c1n(Cc2ccccc2)nnn1-c1cccs1 read Mtb glucose medium: 78.62%; Mtb cholesterol medium: 76.26%.
COc1ccc(S(=O)(=O)N2CCC(=O)C(C)C2)cc1C (stereo not drawn) read Mtb glucose medium: 25.3%.
NCC1CCc2ccccc21 (stereo not drawn) read Mtb glucose medium: 40.67%; Mtb cholesterol medium: 14.27%.
COCCNC(=O)CN(C)CC(=O)N1CCOCC1 read Mtb glucose medium: -9.607%.
CCn1c(=O)c2ccccc2n(CC)c1=O read Mtb cholesterol medium: -4.725%.
N#Cc1cccc(C(=O)NCC(O)C2CCOCC2)c1 (stereo not drawn) read Mtb glucose medium: -0.8343%.
CN(C)C(=O)CN(C)c1ncc(C(F)(F)F)cc1Cl read Mtb glucose medium: 31.5%; Mtb cholesterol medium: 14.72%.
COc1cccnc1CN read Mtb glucose medium: 22.79%.